Here are results for two proteins from article PMC6151270 (Biochemistry, 2018).

What all share (test): SEC
Data set [1] deals with the molecule itself.
Data set [2] deals with the molecule itself. This is another data set of the same source.
Data set [3] deals with the molecule itself. This is another data set of the same source.
Data set [4] deals with the molecule itself. The source holds these as a separate data set.

Like-named read-outs stand apart in the source and are kept apart here.

B1: FP_HM, gp41 […]/SGGRGG/[…] (domain or fragment)
chain: not shown
In general, stoichiometry N refers to the number of molecules, sites or subunits per partner or assembly. Regarding B1, the “stoichiometry N” value in the data set “SEC [1]”, in “SEC [2]” and in the data set “SEC [3]” was 3 in each case.

B2: FP_HM_TM, gp41 […]/SGGRGG/[…] (domain or fragment)
chain: not shown
Take B2: the “stoichiometry N” value in “SEC [1]”, in “SEC [2]” and in the data set “SEC [3]” was 3 in each case. For the same protein, the “monomer:trimer ratio” value in the data set “SEC [4]” was approximately 1.
